Measured values from several laboratories, pooled; numbers as filed in NIAID ChemDB.

Common to all: whole-cell or culture tests; species: HIV-1; cell line: MT-4; endpoint: EC50

ECn: concentration that inhibits the pathogen or its effect by n%. Blank or dashed fields: not listed here. Rows are shuffled and stem from different studies.

compound | strain or isolate | changes | read by | conditions | result
Nc1ccn([C@H]2CC[C@@H](CO)O2)c(=O)n1 | 126 BCH-189 (RT-M184V) | RT-M184V | p24 |  | 2.3 µM
Cc1cc(C#Cc2ccc(C(F)(F)F)cc2)cc(C)c1Oc1ccnc(Nc2ccc(C#N)cc2)n1 | IIIB |  | MTT |  | 0.224 µM
Cc1cn([C@H]2C=C[C@@H](CO)O2)c(=O)[nH]c1=O | FO-08.96 (HXB2 RT F77L F116Y Q151M) | RT-F77L F116Y Q151M | cytopathic effect |  | >10 µM
CC(C)(C)NC(=O)[C@@H]1C[C@@H]2CCCC[C@@H]2CN1C[C@@H](O)[C@H](Cc1ccccc1)NC(=O)[C@H](CC(N)=O)NC(=O)c1ccc2ccccc2n1 | IIIB |  | cytopathic effect / XTT |  | 0.01 µM
Cc1cn([C@H]2C[C@H](N=[N+]=[N-])[C@@H](CO)O2)c(=O)[nH]c1=O | AMR50 |  | cytopathic effect / trypan blue |  | 0.14 µM
CC(C)CN(C[C@@H](O)[C@H](Cc1ccccc1)NC(=O)O[C@H]1CCOC1)S(=O)(=O)c1ccc(N)cc1 | NL4-3 | L10I I54V K20R L24I V32I L33F M36I M46I I54M L63P K70Q V82I I84V L89M | p24 / luminescence |  | >1 µM
Cc1cc(C#Cc2ccc(C(=O)O)cc2)cc(C)c1Oc1ccnc(Nc2ccc(C#N)cc2)n1 | IIIB | K103N | MTT |  | 0.138 µM
Nc1ccn([C@H]2CC[C@@H](CO)O2)c(=O)n1 | HXB2D (RT-K65R) | RT-K65R | p24 |  | 5.6 µM
c1ccc(-c2cc(CN3CCCNCCNCCCNCC3)ccc2CN2CCCNCCNCCCNCC2)cc1 | RF |  | cytopathic effect / MTT |  | 0.39 µg/mL
Cc1ccnc2c1NC(=O)c1cccnc1N2C1CC1 | IIIB | K103N | MTT |  | 3.551 µM
CC(C)CN(C[C@@H](O)[C@H](Cc1ccccc1)NC(=O)[C@H](CC(N)=O)NC(=O)c1ccc2ccccc2n1)C(=O)NC(C)(C)C | NL4-3 | PR-L10R M46I L63P V82T | p24 |  | <0.4 µM
C#Cc1ccc(Nc2nccc(Oc3c(C)cc(-c4cn(CC(=O)Nc5ccc(Br)cc5)nn4)cc3C)n2)cc1 | RES056 |  | MTT |  | >19.78 µM
CN[C@H]1CO[C@@H]2OCC[C@H](OC(=O)N[C@@H](Cc3ccccc3)[C@H](O)CN(CC(C)C)S(=O)(=O)c3ccc4nc(NC5CC5)sc4c3)[C@@H]21 | NL4-3 | L10I N37D G48V I54V L63P G73C I84V L90M | p24 / luminescence |  | 0.027 µM
O=c1[nH]cnc2c1ncn2[C@H]1CC[C@@H](CO)O1 | DI-06.92 (HXB2 RT-K70R) | RT-K70R | cytopathic effect |  | 5.2 µM
C#Cc1ccc(Nc2nccc(Oc3c(C)cc(-c4cn(CC(=O)Nc5ccc(F)cc5)nn4)cc3C)n2)cc1 | IIIB | Y181C | MTT |  | >1.41 µM
Cc1cccc(C)c1Oc1ccnc(Nc2ccc(C#N)cc2)n1 | IIIB |  | MTT |  | 0.005 µM
Nc1ccn([C@H]2CC[C@@H](CO)O2)c(=O)n1 | BI-12.96 (HXB2(RT-A62V S68G T69D V75I F77L F116Y Q151M)) | RT-A62V S68G T69D V75I F77L F116Y Q151M | cytopathic effect |  | >20 µM
c1cc(CCN2CCCNCCNCCCNCC2)ccc1CCN1CCCNCCNCCCNCC1 | NL4-3 |  | cytopathic effect / MTT |  | 30.4 µg/mL
C#Cc1ccc(Nc2nccc(Oc3c(C)cc(-c4cn(CC(=O)Nc5ccc(S(C)(=O)=O)cc5)nn4)cc3C)n2)cc1 | IIIB | K103N | MTT |  | 1.04 µM
COC(=O)c1cc(CN2CCCNCCNCCCNCC2)ccc1CN1CCCNCCNCCCNCC1 | NL4-3 |  | cytopathic effect / MTT |  | 0.81 µg/mL
CCN[C@H]1CO[C@@H]2OCC[C@H](OC(=O)N[C@@H](Cc3cccc(OC)c3)[C@H](O)CN(CC(C)C)S(=O)(=O)c3ccc4nc(NC(C)C)sc4c3)[C@@H]21 | NL4-3 | L10F K20T D30N K45I A71V V77I | p24 / luminescence |  | 0.0032 µM
Cc1cc(C#Cc2ccc(N)cc2)cc(C)c1Oc1ccnc(Nc2ccc(C#N)cc2)n1 | IIIB |  | MTT |  | 0.014 µM
Cc1cn([C@H]2C[C@H](N=[N+]=[N-])[C@@H](CO)O2)c(=O)[nH]c1=O |  |  | ELISA |  | 0.001 µM
Cc1cc(C#Cc2cccc(N)c2)cc(C)c1Oc1ccnc(NC2CCN(Cc3ccc(S(N)(=O)=O)cc3)CC2)n1 | IIIB |  | MTT |  | 0.006 µM
Cc1cccc(-n2nnnc2SCC(=O)Nc2ccccc2[N+](=O)[O-])c1C |  |  | p24 | 50% human serum | <0.25 µM
Cc1cc(C#Cc2ccccc2)cc(C)c1Oc1ccnc(NC2CCN(Cc3ccc(S(N)(=O)=O)cc3)CC2)n1 | IIIB |  | MTT |  | 0.005 µM
c1cc(CN2CCCNCCCNCCNCCC2)cc(CN2CCCNCCCNCCNCCC2)c1 | NL4-3 | AMD3100-resistant | cytopathic effect / MTT |  | >25 µg/mL
COc1ccc2[nH]cc(Cc3c(OC(C)=O)ccc4cc(Br)ccc34)c2c1 |  |  | MTT |  | >20 µM
Cc1cc(C#Cc2cccnc2)cc(C)c1Oc1ccnc(Nc2ccc(C#N)cc2)n1 | IIIB | L100I | MTT |  | 0.076 µM
CN[C@H]1CO[C@@H]2OCC[C@H](OC(=O)N[C@@H](Cc3cccc(OC)c3)[C@H](O)CN(CC(C)C)S(=O)(=O)c3ccc4nc(NC(C)C)sc4c3)[C@@H]21 | NL4-3 | L10I I15V K20R L24I V32I M36I M46I I54V I62V L63P K70Q V82A L88M | p24 / luminescence |  | 0.0024 µM
O=C1N(Cc2ccc(CO)cc2)[C@H](Cc2ccccc2)[C@H](O)[C@@H](O)[C@@H](Cc2ccccc2)N1Cc1ccc(CO)cc1 | NL4-3 | PR-L10R L63P | p24 |  | <0.2 µM
CC(=O)Nc1cccc(C#Cc2cc(C)c(Oc3ccnc(Nc4ccc(C#N)cc4)n3)c(C)c2)c1 | IIIB | RES056 | MTT |  | >0.844 µM
C#Cc1ccc(Nc2nccc(Oc3c(C)cc(-c4cn(-c5cccc(C(=O)OC)c5)nn4)cc3C)n2)cc1 | IIIB | L100I | MTT |  | 0.47 µM
CC(=O)Oc1ccc2cc(Br)ccc2c1Cc1c(-c2ccccc2)[nH]c2ccccc12 |  |  | MTT |  | >8 µM
CCN[C@H]1CO[C@@H]2OCC[C@H](OC(=O)N[C@@H](Cc3ccccc3)[C@H](O)CN(CC(C)C)S(=O)(=O)c3ccc4nc(NC5CC5)sc4c3)[C@@H]21 | NL4-3 | L10I I15V K20R L24I V32I M36I M46I L63P K70Q V82A I84V L89M | p24 / luminescence |  | 0.0051 µM
C#Cc1ccc(Nc2nccc(Oc3c(C)cc(-c4cn(Cc5ccc(C(N)=O)cc5)nn4)cc3C)n2)cc1 | IIIB | E138K | MTT |  | 0.12 µM
COc1ccc2ccc(OC(C)=O)c(Cc3c[nH]c4ccc(OC)cc34)c2c1 |  |  | MTT |  | 19 µM
NS(=O)(=O)c1ccc(NC(=O)CSc2nnnn2-c2cc(Cl)ccc2Cl)c(Cl)c1 |  |  | p24 | 50% human serum | <0.125 µM
C#Cc1ccc(Nc2nccc(Oc3c(C)cc(-c4cn(Cc5ccc(S(N)(=O)=O)cc5)nn4)cc3C)n2)cc1 | IIIB | Y181C | MTT |  | 0.53 µM
O=C(CSc1nnnn1-c1c(Cl)cccc1Cl)Nc1ccccc1[N+](=O)[O-] |  |  | p24 | 50% human serum | <0.062 µM
C#Cc1ccc(Nc2nccc(Oc3c(C)cc(-c4cn(Cc5ccccc5[N+](=O)[O-])nn4)cc3C)n2)cc1 | IIIB |  | MTT |  | 0.048 µM
Cc1cc(C)c(-n2nnnc2SCC(=O)Nc2ccc(C(N)=O)cc2Cl)c(C)c1 |  |  | p24 | 50% human serum | <0.016 µM
O=c1ccc2ccc(O)c(CN3CCN(Cc4c(O)ccc5ccc(=O)oc45)CC3)c2o1 |  |  | MTT |  | >20 µM
CC(C)CN(C[C@@H](O)[C@H](Cc1ccccc1)NC(=O)O[C@H]1CCOC1)S(=O)(=O)c1ccc(N)cc1 | NL4-3-P22 (PR D30N A71V) | PR-D30N A71V | p24 |  | <0.04 µM